A mixed list of measured activities; the numbers were collected in NIAID ChemDB.

Shared fields: toxicity to cultured cells; cell line: MT-4; measure: CC50

Lines come from different laboratories, so protocols vary. Blank or dashed fields: not listed here. CCn: concentration that lowers growth or viability of the cells by n%.

compound	method	result
CCOC(=O)CNc1nc(Nc2ccc(Br)cc2)nc(Oc2cc(=O)oc3ccccc23)n1	MTT	51.28 µg/mL
CCCc1c(OC2CCC2)c2cc(Cl)ccc2[nH]c1=O		94.7 µM
Cc1cc(C#N)cc(C)c1Oc1nc(NC2CCN(S(=O)(=O)c3ccc(N)cc3)CC2)nc2ccsc12	MTT	>233.7 µM
CCCCCCCCCCCCCCCCOC(=O)Oc1c2n(cc(C(=O)NCc3ccc(F)cc3F)c1=O)[C@@H]1CN(C2=O)[C@@H](C)CC[C@]12CC(C)=NO2	luminescence	50 µM
CCOC(=O)CNc1nc(NC(=O)Nc2cccc(Cl)c2)nc(Oc2cc(=O)oc3ccccc23)n1	MTT	>125 µg/mL
O=C(O)CCN1C(=O)/C(=C\c2ccc(-c3cccc([N+](=O)[O-])c3)o2)SC1=S	propidium iodide	36 µM
N#CSc1ccc2nc(NC(=O)CN3C(=O)S/C(=C/c4cccc(Br)c4)C3=O)sc2c1	MTT	73 µM
O=C(O[C@H]1CCOC1)N(Cc1ccccc1)CC(O)C(Sc1ccccc1)N(Cc1ccccc1)C(=O)O[C@H]1CCOC1		50 µM
N#CSc1ccc2nc(NC(=O)CN3C(=O)S/C(=C/c4ccc(F)cc4)C3=O)sc2c1	MTT	>100 µM
O=C1c2c(O)cc(O)cc2O[C@]12c1c(cc(O)c3c1O[C@H](c1ccc(O)cc1)CC3)O[C@H]2c1ccc(O)cc1		38 µg/mL
CCCCCCCCC(=O)OCOc1c2n(cc(C(=O)NCc3ccc(F)cc3F)c1=O)[C@@H]1CN(C2=O)[C@@H](C)CC[C@]12CC(OC)=NO2	luminescence	50 µM
Nc1ccc2cc(S(=O)(=O)[O-])cc(O)c2c1N=Nc1ccc(NC(=O)Nc2ccc(N=Nc3c(N)ccc4cc(S(=O)(=O)[O-])cc(O)c34)c(S(=O)(=O)[O-])c2)cc1S(=O)(=O)[O-]	propidium iodide	8 µM
COc1ccccc1NC(=S)Nc1nc(NCCc2ccc(OC)c(OC)c2)nc(Oc2cc(=O)oc3ccccc23)n1	MTT	19.63 µg/mL
Cc1cc(C#N)cc(C)c1Oc1nc(Nc2ccc(NS(N)(=O)=O)cc2)nc2ccsc12	MTT	25.06 µM
CC(C)c1c(SCC2CCC2)c2cc(F)ccc2[nH]c1=O		68.5 µM
O=C(O)c1ccc2c(c1)C(=O)N(c1ccc(-c3cc(-c4ccc(N5C(=O)c6ccc(C(=O)O)cc6C5=O)cc4)nc(-c4ccccc4)n3)cc1)C2=O	propidium iodide	>20 µM
Cc1cc(C#N)cc(C)c1Oc1nc(Nc2ccc(NS(=O)(=O)c3ccc4oc(=O)ccc4c3)cc2)nc2ccsc12	MTT	>209.8 µM
O=C(c1c(O)cc(O)cc1O)c1c(-c2ccc(O)cc2)oc2cc(O)c3c(c12)O[C@H](c1ccc(O)cc1)[C@@H](O)C3		>100 µg/mL
CCCc1c(OC#CC2CC2)c2cc(Cl)ccc2[nH]c1=O		28.8 µM
N#CSc1ccc2nc(NC(=O)CN3C(=O)S/C(=C/c4ccc(O)cc4)C3=O)sc2c1	MTT	56 µM
C=CCn1c(-c2ccccc2F)nc2c(OC)cccc21		>30.5 µg/mL
CCCc1c(OCC2CCC2)c2cc(Cl)ccc2[nH]c1=O		24 µM
CC(C)[C@H](NC(=O)OCc1ccccc1)C(=O)NC(Sc1ccccc1)C(O)C(NC(=O)[C@@H](NC(=O)OCc1ccccc1)C(C)C)Sc1ccccc1		50 µM
CCCCCCCCCCCCCCCCCC(=O)Oc1c2n(cc(C(=O)NCc3ccc(F)cc3F)c1=O)[C@@H]1CN(C2=O)[C@@H](C)CC[C@]12CC(C)=NO2	luminescence	50 µM
CC(C)[C@H](N)C(=O)N(Cc1ccccc1)CC(O)C(Sc1ccccc1)N(Cc1ccccc1)C(=O)[C@@H](N)C(C)C		50 µM
Cc1ccnc2c1NC(=O)c1cccnc1N2C1CC1	MTT	>15.02 µM
CCCCCCCCCC(=O)OCOc1c2n(cc(C(=O)NCc3ccc(F)cc3F)c1=O)[C@@H]1CN(C2=O)[C@@H](C)CC[C@]12CC(OC)=NO2	luminescence	50 µM
CCOC(=O)CNc1nc(NC(=O)Nc2ccc(OC)cc2)nc(Oc2cc(=O)oc3ccccc23)n1	MTT	85.9 µg/mL
COc1cccc2c1nc(-c1ccccc1F)n2Cc1cccc(C#N)c1		9.5 µg/mL
Cc1cc(C#N)cc(C)c1Oc1nc(NC2CCN(S(N)(=O)=O)CC2)nc2ccsc12	MTT	20.35 µM
CCCCCCCCCCCCOC(=O)OCOc1c2n(cc(C(=O)NCc3ccc(F)cc3F)c1=O)[C@@H]1CN(C2=O)[C@@H](C)CC[C@]12CC(OC)=NO2	luminescence	50 µM
COc1cccc2c1nc(-c1ccccc1F)n2Cc1cccc(Cl)c1		14.2 µg/mL
Cc1ccc(/C=C2/SC(=O)N(CC(=O)Nc3nc4ccc(SC#N)cc4s3)C2=O)cc1	MTT	50 µM
Cc1cc(C#N)cc(C)c1Oc1nc(Nc2ccc(C#N)cc2)nc(N)c1Br	MTT	>4.585 µM
O=C1N/C(=N\N=C\c2ccc(Cl)c([N+](=O)[O-])c2)S/C1=C/c1ccc(-c2ccc(Cl)c(C(=O)O)c2)o1	propidium iodide	40 µM
COc1ccc(-c2c3c(n([C@@H]4O[C@H](COC(C)=O)[C@@H](OC(C)=O)[C@H](OC(C)=O)[C@@H]4OC(C)=O)c(=S)c2C#N)-c2ccccc2C3)cc1		8.91 µM
COc1cccc2c1nc(-c1ccccc1F)n2CCC(C)C		12.57 µg/mL
CC(C)[C@H](NC(=O)c1cccnc1)C(=O)N(Cc1ccccc1)CC(O)C(Sc1ccccc1)N(Cc1ccccc1)C(=O)[C@@H](NC(=O)c1cccnc1)C(C)C		100 µM
CCc1c(OC#CC2CC2)c2cc(F)ccc2[nH]c1=O		8 µM
Cc1cc(C#N)cc(C)c1Oc1nc(Nc2ccc(NS(C)(=O)=O)cc2)nc2ccsc12	MTT	>268.4 µM
CCC(C)c1c(OC2CCCC2)c2cc(Cl)ccc2[nH]c1=O		26.3 µM
Cc1cc(C#N)cc(C)c1Oc1nc(NC2CCN(S(=O)(=O)c3ccc4ccccc4c3)CC2)nc2ccsc12	MTT	>219.4 µM